Measured values from several laboratories, pooled; numbers as filed in NIAID ChemDB.

Common to all: whole-cell or culture tests

Percent inhibition refers to the dose given; in toxicity tests it is the harm to the cells. Neighbouring rows are from separate reports. a–b is a range or a potency band. MIC50, MIC90 and the like: level of inhibition, or share of isolates inhibited. ECn is the concentration giving n% inhibition of infection, replication or growth. Blank or dashed fields: not listed here.

structure	read by	organism	dose	cell line	strain or isolate	conditions	read-out	value
COc1cc2[nH]c(C)c(-c3ccccc3C)c(=O)c2cc1Cl	luciferase	Plasmodium berghei		HepG2	Pb1052 c11		EC50	0.00282 µM
CCOC(=O)Nc1cc2c(c(N)n1)N=C1c3ccccc3CCC1O2.Cl.Cl		Encephalitozoon intestinalis	0.01 µg/mL	RK-13			inhibition	9.4%
Nc1nc(N)c2ncn(CCOCP(=O)(O)O)c2n1	plaque count	Varicella zoster virus		HEL	PFA-resistant/A		EC50	4.5 µg/mL
C[C@@]1(O)[C@H](O)[C@@H](CO)O[C@H]1n1ccc2c(N)ncnc21	MTT	Hepatitis C virus	50 µg/mL	HeLa-5B			inhibition	1.07%
O=C1Nc2ncn(Cc3ccccc3)c2C(=O)N(Cc2ccccc2)N1	cytopathic effect	West Nile virus		HepG2.2.15			EC50	3–5 µM
CC#Cc1ccc(-c2ccccc2)s1	plaque count	Mouse cytomegalovirus		3T3-L1			EC50	>1 µg/mL
NC12CC3CC(CC(C3)C1)C2	plaque count	Influenza A virus		MDCK	H1N1 FM/1/47		EC50	0.3 µg/mL
CN(C)c1cc(NC(=O)CNC(C)(C)C)c(O)c2c1C[C@H]1C[C@H]3[C@H](N(C)C)C(=O)C(C(N)=O)=C(O)[C@@]3(O)C(=O)C1=C2O	broth dilution	Mycobacterium abscessus			V206		MIC	0.5 µg/mL
CCn1cc(C(=O)O)c(=O)c2cc(F)c(N3CCNCC3)cc21		Vittaforma corneae					MIC50	24 µM
O=C1N(Cc2ccc(CO)cc2)[C@H](Cc2ccccc2)[C@H](O)[C@@H](O)[C@@H](Cc2ccccc2)N1Cc1ccc(CO)cc1	virus yield	HIV-1	0.32 µM	MT-2	A018C POST AZT		inhibition	90%
c1cc(CN2CCCNCCNCCCNCC2)ccc1CN1CCCNCCNCCCNCC1	p24	HIV-1	0.1 µM	PBMC	92US077 CLADE B R5X4		inhibition	76%
Nc1ncnc2c1ncn2C[C@@H](CO)OCP(=O)(O)O	cytopathic effect	Cytomegalovirus			DAVIS		EC50	0.63 µM
COc1cc(Cc2cnc(N)nc2N)cc(OC)c1OC		Mycobacterium ulcerans			ATCC 35840		MBC	>32 µg/mL
COc1cccc(C=O)c1OC	agar	Aspergillus terreus			UAB673		MIC	2500 µM
CC#Cc1ccc(-c2ccc(C(=O)OCC)s2)s1	plaque count	Mouse cytomegalovirus		3T3-L1			EC50	0.035 µg/mL
Nc1cc(OC[C@@H](CO)OCP(=O)(O)O)nc(N)n1	PCR	Adenovirus		HEL	TYPE 2		EC50	13 µM
CCCCc1cc2c(=O)c(C(=O)OC)c[nH]c2cc1OCCOc1ccccc1	luciferase	Plasmodium berghei		HepG2	Pb1052 c11		EC50	0.00008 µM
NC(=O)c1csc([C@@H]2O[C@H](CO)[C@@H](O)[C@H]2O)n1	cytopathic effect	Pichinde virus		VERO	COAN3739		EC50	494.5 µg/mL
CN(C)[C@@H]1C(=O)C(C(N)=O)=C(O)[C@@]2(O)C(=O)C3=C(O)c4c(O)c(NC(=O)CNc5ccccc5)cc(F)c4C[C@H]3C[C@@H]12	agar diffusion	Streptococcus pneumoniae			106-49619		EC50	2 µg/mL
CC1COc2c(N3CCN(C)CC3)c(F)cc3c(=O)c(C(=O)O)cn1c23		Staphylococcus aureus			10 strains (oxacillin-resistant)		MIC50	4 µg/mL
O=c1[nH]c(=O)n([C@@H]2O[C@H](CO)[C@@H](O)[C@@H]2O)cc1/C=C/Br	plaque count	Varicella zoster virus		HEL	ACV-resistant		EC50	≥13.1 µg/mL
CC#Cc1ccc(-c2ccc(C(=O)O)s2)s1	plaque count	Mouse cytomegalovirus		3T3-L1			EC50	0.055 µg/mL
C[C@H]1COc2c(N3CCN(C)CC3)c(F)cc3c(=O)c(C(=O)O)cn1c23		Streptococcus pneumoniae			1L1 (PARC mutation SER79PHE)		MIC	2 µg/mL
CCn1cc(C(=O)O)c(=O)c2cc(F)c(N3CCNC(C)C3)c(F)c21		Vittaforma corneae					MIC50	3 µM
Nc1cc(OCCOCP(=O)(O)O)nc(N)n1	cytopathic effect	Punta Toro virus					EC50	>190 µM
S=c1nc[nH]c2c1ncn2C1CCCO1	plaque count	Dengue virus	10 µM	LLC-MK2	TYPE 2		inhibition	29%
COc1ccc2cc3[n+](cc2c1OC)CCc1cc2c(cc1-3)OCO2		Vittaforma corneae	10 µg/mL	RK-13			inhibition	63.1%
COc1cc(Cc2cnc(N)nc2N)cc(OC)c1Br		Mycobacterium ulcerans			Isolate 842		MBC	8 µg/mL
Cc1cn([C@H]2C[C@H](N=[N+]=[N-])[C@@H](COP(=O)(O)OC[C@H]3OC(O)[C@H](O)[C@@H](O)[C@@H]3O)O2)c(=O)[nH]c1=O	RT activity	HIV-1	25 µM	PBL	LAV-Bru	7 d	inhibition	96%
COc1c(N2CCNC(C)C2)c(F)cc2c(=O)c(C(=O)O)cn(C3CC3)c12		Vittaforma corneae					MIC50	73 µM
O=C(O)/C=C/c1ccc(O)c(O)c1	cytopathic effect	Adenovirus		BCC-1/KMC	TYPE 11		EC50	>200 µg/mL
COc1cc(C=O)cc(OC)c1	agar	Aspergillus terreus			UAB698		MIC	1000 µM
CC(=O)Oc1ccccc1C(=O)Nc1ncc([N+](=O)[O-])s1		Vittaforma corneae	10 µg/mL	RK-13			inhibition	83%
Nc1nc2c(ncn2COC(CO)CO)c(=O)[nH]1	plaque count	Varicella zoster virus		HEL	BVDU-resistant		EC50	1.5 µg/mL
Nc1nccc2c1ncn2[C@@H]1C[C@H](CO)[C@@H](O)[C@H]1O	cytopathic effect	Vesicular stomatitis virus		L929			EC50	1 µg/mL
CC[C@H]1OC(=O)[C@H](C)[C@@H](O[C@H]2C[C@@](C)(OC)[C@@H](O)[C@H](C)O2)[C@H](C)[C@@H](O[C@@H]2O[C@H](C)C[C@H](N(C)C)[C@H]2O)[C@](C)(OC)C[C@@H](C)C(=O)[C@H](C)[C@@H](O)[C@]1(C)O	broth dilution	Mycobacterium abscessus					MIC90	4 µg/mL
Nc1nc2c(ncn2CCC(CO)CO)c(=O)[nH]1	plaque count	Varicella zoster virus		HEL	PFA-resistant/B		EC50	1.69 µg/mL
Brc1csc(-c2ccsc2)c1	plaque count	Mouse cytomegalovirus		3T3-L1			EC50	>1 µg/mL
C[C@@]1(O)[C@H](O)[C@@H](CO)O[C@H]1c1coc2c(N)ncnc12	MTT	Hepatitis C virus	10 µg/mL	HeLa-5B			inhibition	11.56%
CC(N)C12CC3CC(CC(C3)C1)C2	neutral red / visual reading	Influenza A virus		MDCK	H1N1 A/TEXAS/36/91		EC50	0.15 µM
C[C@H](Cc1ccc(O)c(O)c1)[C@@H](C)Cc1ccc(O)c(O)c1	broth dilution	Candida albicans			CCC 130-2000		MIC50	125 µg/mL
C=C1CN2CCC34c5ccccc5N5C=C([C@H]6CC7C8=C(CCC7C/C6=C/C)c6ccccc6C8)[C@@H](O)[C@@H]([C@H]53)[C@H]1C[C@H]24		Plasmodium falciparum			W2		EC50	0.415 µg/mL
CCCCCCCCCCCCNc1nc(=O)c2ncn([C@@H]3O[C@H](CO)[C@@H](O)[C@H]3O)c2c(=O)[nH]1	cytopathic effect	West Nile virus		HepG2.2.15			EC50	1–3 µM
CC(C)[C@H](NC(=O)c1ccc2ccccc2n1)C(=O)N[C@@H](Cc1ccccc1)[C@H](O)CN1CC[C@@H](OCc2ccncc2)C[C@H]1C(=O)NC(C)(C)C	p24	HIV-2	0.152 µM	C8166	ROD		inhibition	90%
O=C(Nc1ccccc1)c1c(O)[nH]c(=S)[nH]c1=O	PCR	Epstein-Barr virus		P3HR-1			EC50	20.12 µM
CCOC(=O)Nc1cc2c(c(N)n1)N=C(c1ccc(N=[N+]=[N-])cc1)CO2		Encephalitozoon intestinalis	0.01 µg/mL	RK-13			inhibition	45.1%
Nc1nc(=O)c2[nH]cnc2c(=O)[nH]1	cytopathic effect	West Nile virus		HepG2.2.15			EC50	>500 µM
CN[C@@H]1[C@H](O[C@H]2[C@H](O[C@H]3[C@H](O)[C@@H](O)[C@H](N=C(N)N)[C@@H](O)[C@@H]3N=C(N)N)O[C@@H](C)[C@]2(O)C=O)O[C@@H](CO)[C@H](O)[C@H]1O		Klebsiella pneumoniae			ESBL-3894		MIC	6.25 µg/mL
O=C(Nc1ncc([N+](=O)[O-])s1)c1ccccc1O		Vittaforma corneae	1 µg/mL	RK-13			inhibition	66.1%
CCOC(=O)c1ccc(-c2ccc(I)s2)s1	plaque count	Mouse cytomegalovirus		3T3-L1			EC50	0.062 µg/mL
CCCCCCCCCCCCNc1nc(=O)c2ncn(Cc3ccc(OC)cc3)c2c(=O)[nH]1	cytopathic effect	West Nile virus		HepG2.2.15			EC50	5 µM
C(#Cc1cccs1)c1ccccc1	plaque count	Mouse cytomegalovirus		3T3-L1			EC50	>1 µg/mL
Nc1nc2c(ncn2COCCO)c(=O)[nH]1		Adenovirus		HEL	TYPE 2		EC50	>1000 µM
COc1cc(C(=O)O)ccc1O	cytopathic effect	Adenovirus		BCC-1/KMC	TYPE 8		EC50	>200 µg/mL
C/C=C1/CN2CCC34c5ccccc5N5C=C6[C@H]7C[C@@H]8N(CCC89c8ccccc8N(C=C([C@H]1C[C@H]23)[C@H]54)[C@@H]69)C/C7=C/C		Plasmodium falciparum			3D7		EC90	7.38 µg/mL
CCOC(=O)Nc1cc2[nH]c(-c3ccccc3)nc2c(N)n1		Encephalitozoon intestinalis	1 µg/mL	RK-13			inhibition	79.4%
Cc1cn([C@H]2C[C@H](N=[N+]=[N-])[C@@H](CO)O2)c(=O)[nH]c1=O	RT activity	HIV-1	1 µM	PBL	LAV-Bru	7 d	inhibition	94%
OCC1=C[C@@H](O)[C@@H]2C=CO[C@@H](O[C@@H]3O[C@H](CO)[C@@H](O)[C@H](O)[C@H]3O)[C@H]12	cytopathic effect	Adenovirus		BCC-1/KMC	TYPE 3		EC50	>200 µg/mL
Nc1ncc2c(ncn2COC(CO)CO)n1		Adenovirus		HEL	TYPE 2		EC50	0.61 µM
c1cc(-c2cscc2-c2ccsc2)cs1	plaque count	Mouse cytomegalovirus		3T3-L1			EC50	>1 µg/mL
CCn1cc(C(=O)O)c(=O)c2cnc(N3CCNCC3)nc21		Vittaforma corneae					MIC50	>100 µM
COc1ccccc1C=O	agar	Aspergillus terreus			UAB680		MIC	2500 µM
CC1(C)CC[C@]2(C(=O)O)CC[C@]3(C)C(=CC[C@@H]4[C@@]5(C)CC[C@H](O)C(C)(C)[C@@H]5CC[C@]43C)[C@@H]2C1	cytopathic effect	Adenovirus		BCC-1/KMC	TYPE 8		EC50	>40 µg/mL
C/C=C1/CN2CCC34c5ccccc5N5C(OC)C67OC(C([C@H]53)[C@H]1C[C@H]24)N1c2ccccc2C2(CCN3C/C(=C/C)[C@@H]6C[C@H]32)[C@@H]17		Plasmodium falciparum			3D7		EC90	3.632 µg/mL
O=c1cc(-c2ccccc2)oc2cc(O)c(O)c(O)c12	cytopathic effect	Adenovirus		BCC-1/KMC	TYPE 3		EC50	>20 µg/mL
O=c1ccn([C@H]2C[C@H](F)[C@@H](CO)O2)c(=O)[nH]1		Adenovirus		HEL	TYPE 2		EC50	>100 µM
c1cc(-c2ccsc2-c2ccsc2)cs1	plaque count	Mouse cytomegalovirus		3T3-L1			EC50	0.375 µg/mL
CCCCCCCCCCCCNc1nc(=O)c2[nH]cnc2c(=O)[nH]1	cytopathic effect	West Nile virus		HepG2.2.15			EC50	500 µM
C#CC[C@@H](C(=O)N[C@H](/C=C/C(=O)OCC)C[C@@H]1CCNC1=O)n1cccc(NC(=O)c2cc(C)on2)c1=O	cytopathic effect / XTT	Rhinovirus	0.078 µM	H1-HELA	Serotype 1A		inhibition	90%
CCCSc1ccc2nc(NC(=O)OC)[nH]c2c1		Vittaforma corneae					MIC	0.055 µg/mL
Nc1ncnc2c1ncn2CCOCP(=O)(O)O	cytopathic effect	Punta Toro virus					EC50	>185 µM